A mixed list of measured activities; the numbers were collected in NIAID ChemDB.

Common to all: whole-cell or culture tests; species: Hepatitis C virus; measure: EC50

Neighbouring rows are from separate reports. Two numbers with a dash give a range or band. Blank or dashed fields: not listed here. ECn is the concentration giving n% inhibition of infection, replication or growth.

| structure | changes | strain or isolate | cell line | method | result |
|---|---|---|---|---|---|
| C=CC[C@](C)(NC(=O)[C@H]1C[C@@H](Oc2cccc3c(Cl)ccnc23)CN1C(=O)[C@@H](NC(=O)OC(C)(C)C)C(C)(C)C)C(=O)NS(=O)(=O)C1CC1 | - | BMS | Huh7 | replicon | 1–10 µM |
| Nc1ncnc2c1c(-c1ccccc1)cn2[C@@H]1O[C@H](CO)[C@@H](O)C1(F)F | - | 2a | HCV replicon | replicon | 8.58 µM |
| CC1CCC(C(=O)N(c2cc(-c3ccc(NC(=O)c4cocn4)cc3)sc2C(=O)O)C(C)C)CC1 | - | 1a | - | replicon | >0.5 µM |
| C=CC1CC1(NC(=O)[C@@H]1C[C@@H](OC(=O)Nc2cccc(C(=O)OC)c2)CN1C(=O)[C@@H](NC(=O)OC(C)(C)C)C(C)(C)C)C(=O)NS(=O)(=O)C1CC1 | - | 1b | Huh7 | replicon | 1–10 µM |
| COc1ccc(-c2cnc3nc(N)nc(N4CCN(C(=O)Cc5cccs5)CC4)c3n2)cc1OC | - | HCV replicon | Huh7 | replicon | <0.3 µM |
| C=CC1CC1(NC(=O)[C@@H]1C[C@@H](OC(=O)N2CCc3ccccc32)CN1C(=O)[C@@H](NC(=O)OC(C)(C)C)C(C)(C)C)C(=O)NS(=O)(=O)C1CC1 | - | 1b | Huh7 | replicon | 0.1–1 µM |
| COc1ccc2c(c1)c(=O)c(-c1noc(Cc3ccccc3)n1)cn2Cc1ccc(Cl)cc1 | - | 1b | - | replicon | >10 µM |
| C=CC1CC1(NC(=O)[C@@H]1C[C@@H](OC(=O)[n+]2cccc(C(C)=O)c2)CN1C(=O)[C@@H](NC(=O)OC(C)(C)C)C(C)(C)C)C(=O)NS(=O)(=O)C1CC1 | - | 1b | Huh7 | replicon | >10 µM |
| COc1ccc(-c2cnc3nc(N)nc(N4CCN(C(=O)c5cccs5)CC4)c3n2)cc1OC | - | HCV replicon | Huh7 | replicon | <0.3 µM |
| C=CC1CC1(NC(=O)[C@@H]1C[C@@H](OC(=O)Nc2cccc(C(F)(F)F)c2)CN1C(=O)[C@@H](NC(=O)OC(C)(C)C)C(C)(C)C)C(=O)NS(=O)(=O)C1CC1 | - | 1b | Huh7 | replicon | 1–10 µM |
| C=C[C@H]1C[C@@]1(NC(=O)[C@@H]1C[C@@H](Oc2cc(C)nc3nc(C(F)(F)F)ccc23)CN1C(=O)[C@@H](NC(=O)OC(C)(C)C)C(C)(C)C)C(=O)NS(=O)(=O)C1CC1 | - | BMS | Huh7 | replicon | 1–10 µM |
| CC1CCC(C(=O)N(c2cc(-c3ccc(NC(=O)c4csc(N)n4)cc3)sc2C(=O)O)C(C)C)CC1 | - | 1a | - | replicon | <0.5 µM |
| COc1ccc(-c2cnc3nc(NCc4cccs4)nc(N)c3n2)cc1OC | - | HCV replicon | Huh7 | replicon | 0.3–1 µM |
| CCCCNc1nc(=O)n2c3c1nnn3C[C@H]1OC2[C@H](O)[C@@H]1O | - | - | Huh7 | - | >100 µM |
| CCOc1nc(N)nc2ncc(-c3ccc(Cl)cc3)nc12 | - | - | Huh7 | - | 0.3–1 µM |
| Nc1ncnc2c1c(I)cn2[C@@H]1O[C@H](CO)[C@@H](O)C1(F)F | - | 1b | HCV replicon | replicon | 0.06 µM |
| Nc1nc(=O)n2c3c1nnn3C[C@H]1OC2[C@H](O)[C@@H]1O | - | - | Huh7 | - | 10.9 µM |
| C=CC[C@](C)(NC(=O)[C@H]1C[C@@H](Oc2ccnc3ccc(F)cc23)CN1C(=O)[C@@H](NC(=O)OC(C)(C)C)C(C)(C)C)C(=O)NS(=O)(=O)C1CC1 | - | BMS | Huh7 | replicon | <0.1 µM |
| Nc1ncnc2c1c(-c1ccoc1)cn2[C@@H]1O[C@H](CO)[C@@H](O)C1(F)F | - | 1a | HCV replicon | replicon | 16.51 µM |
| CCCCNC(=O)N1CCN(c2nc(N)nc3ncc(-c4ccc(OC)c(OC)c4)nc23)CC1 | - | HCV replicon | Huh7 | replicon | <0.3 µM |
| CCO[C@H](c1ccc(O)cc1)[C@@H](O)CO | - | Jc1 | n4mBid cells | ATP | >100 µM |
| Nc1ncnc2c1c(-c1cc3ccccc3o1)cn2[C@@H]1O[C@H](CO)[C@@H](O)C1(F)F | - | 1a | HCV replicon | replicon | 1.1 µM |
| C=C[C@@H]1C[C@]1(NC(=O)[C@@H]1C[C@@H](Oc2cc3ccc(OC)cc3c(-c3csc(N(C)C)n3)n2)CN1C(=O)[C@@H](NC(=O)OC(C)(C)C)C(C)(C)C)C(=O)NS(=O)(=O)C1CC1 | - | BMS | Huh7 | replicon | <0.1 µM |
| COc1ccc(-c2nc(NC(=O)C(C)c3ccccc3)[nH]c2C)cc1S(C)(=O)=O | - | JFH-1 | Huh7 | luciferase | 0.805 µM |
| COc1ccc(-c2cnc3nc(N)nc(N4CCN(C(=O)Cc5ccc(Cl)cc5)CC4)c3n2)cc1OC | - | HCV replicon | Huh7 | replicon | <0.3 µM |
| C=CC1CC1(NC(=O)[C@@H]1C[C@@H](OC(=O)Nc2ccccc2C(=O)O)CN1C(=O)[C@@H](NC(=O)OC(C)(C)C)C(C)(C)C)C(=O)NS(=O)(=O)C1CC1 | - | 1b | Huh7 | replicon | >10 µM |
| CN1CCN(c2cc3c(cc2F)c(=O)c(-c2noc(C(CCCC#N)c4ccccc4)n2)cn3Cc2ccc(C(F)(F)F)cc2F)CC1 | - | 1b | - | replicon | <2 µM |
| C=CC1CC1(NC(=O)[C@@H]1C[C@@H](OC(=O)Nc2ccccc2-n2cccn2)CN1C(=O)[C@@H](NC(=O)OC(C)(C)C)C(C)(C)C)C(=O)NS(=O)(=O)C1CC1 | - | 1b | Huh7 | replicon | 0.1–1 µM |
| COc1ccc(-c2cnc3nc(N)nc(N4CCN(C(=O)Nc5ccc(C#N)cc5)CC4)c3n2)cc1OC | - | HCV replicon | Huh7 | replicon | <0.3 µM |
| COc1cc2oc(-c3ccc(O)cc3)c(OC)c(=O)c2c(O)c1C | - | Jc1 | n4mBid cells | ATP | 2.25 µM |
| Cc1cc(-c2cc(N(C(=O)C3CCC(C)CC3)C(C)C)c(C(=O)O)s2)cnc1NC(=O)c1cscn1 | - | 1b | - | replicon | <0.5 µM |
| Nc1nc(N2CCOCC2)c2nc(-c3cccnc3F)cnc2n1 | - | - | Huh7 | - | 1–10 µM |
| CC(C)C(=O)N1c2cccc(O)c2NC2=C(C(=O)CC(C)(C)C2)C1c1cccc2ccccc12 | - | 1b | - | luciferase / reporter gene / replicon | 0.25 µM |
| CN(C)c1nc(=O)n2c3c1nnn3C[C@H]1OC2[C@H](O)[C@@H]1O | - | - | Huh7 | - | >100 µM |
| Nc1nc(N2CCOCC2)c2nc(-c3ccn[nH]3)cnc2n1 | - | - | Huh7 | - | 1–10 µM |
| CC1(C)CC(=O)C2=C(C1)Nc1c(O)cccc1N(C(=O)c1cc(-c3ccccc3)on1)C2c1ccc(OCc2ccccc2)cc1F | - | 1b | - | luciferase / reporter gene / replicon | 4.68 µM |
| CC(C)(c1ccc(Cl)cc1)c1nc(-c2cn(Cc3ccc(C(F)(F)F)cc3)c3cc(N4CCS(=O)(=O)CC4)c(F)cc3c2=O)no1 | - | 1b | - | replicon | <0.5 µM |
| CNOCc1ccc(-c2cnc3nc(N)nc(N4CCOCC4)c3n2)cc1 | - | - | Huh7 | - | 1–10 µM |
| C=CC[C@](C)(NC(=O)[C@H]1C[C@@H](Oc2ccnc3c(F)cccc23)CN1C(=O)[C@@H](NC(=O)OC(C)(C)C)C(C)(C)C)C(=O)NS(=O)(=O)C1CC1 | - | BMS | Huh7 | replicon | <0.1 µM |
| COc1ccc(-c2nc(NC(=O)[C@H](C)c3ccc(Cl)cc3)[nH]c2C)cc1S(=O)(=O)CCO | - | 1b | Huh7 | luciferase | 0.83 µM |
| CC(=O)c1ccc(C(=O)N2c3cccc(O)c3NC3=C(C(=O)CC(C)(C)C3)[C@@H]2c2ccc(OCc3ccccc3)cc2F)nc1 | - | 1b | - | luciferase / reporter gene / replicon | 0.44 µM |
| CC1CCC(C(=O)N(c2cc(-c3ccc(NC(=O)c4ccn[nH]4)cc3)sc2C(=O)O)C2CCC2)CC1 | - | 1a | - | replicon | <0.5 µM |
| C[C@@]1(O)[C@H](O)[C@@H](CO)O[C@H]1n1cnc2c(N)ncnc21 | - | Jc1 | n4mBid | ATP | 0.09 µM |
| C=CC[C@](C)(NC(=O)[C@H]1C[C@@H](Oc2nc3c(c4ccccc24)OCOC3)CN1C(=O)[C@@H](NC(=O)OC(C)(C)C)C(C)(C)C)C(=O)NS(=O)(=O)C1CC1 | - | BMS | Huh7 | replicon | <0.1 µM |
| C[C@H](CC[C@H](O)C(C)(C)O)[C@H]1CC[C@@]2(C)[C@@H]3CC[C@H]4C(C)(C)C(=O)CC[C@]4(C)C3=CC[C@]12C | - | Jc1 | n4mBid cells | ATP | 2.67 µM |
| COc1ccc(-c2cnc3nc(N)nc(N4CCN(CC5OCCO5)CC4)c3n2)cc1OC | - | HCV replicon | Huh7 | replicon | 0.3–1 µM |
| CCOc1nc(N)nc2ncc(-c3ccc(O)cc3)nc12 | - | - | Huh7 | - | 1–10 µM |
| C=CC1CC1(NC(=O)[C@@H]1C[C@@H](OC(=O)Nc2cc(C#N)ccc2-n2cccn2)CN1C(=O)[C@@H](NC(=O)OC(C)(C)C)C(C)(C)C)C(=O)NS(=O)(=O)C1CC1 | - | 1b | Huh7 | replicon | <0.1 µM |
| CCCOc1nc(N)nc2ncc(-c3ccc(F)cc3)nc12 | - | - | Huh7 | - | 1–10 µM |
| CN1CCN(c2cc3c(cc2F)c(=O)c(-c2noc(C(CCCC(N)=O)c4ccccc4)n2)cn3Cc2ccc(C(F)(F)F)cc2F)CC1 | - | 1b | - | replicon | >10 µM |
| CCN(CC)C(=O)N1CCN(c2nc(N)nc3ncc(-c4ccc(OC)c(OC)c4)nc23)CC1 | - | HCV replicon | Huh7 | replicon | <0.3 µM |
| COc1ccc(-c2nc(NC(=O)[C@@H](C)c3ccc(Cl)cc3)[nH]c2C)cc1S(C)(=O)=O | - | 1a | Huh7 | luciferase | 0.142 µM |
| C=CC1CC1(NC(=O)[C@@H]1C[C@@H](OC(=O)Nc2onc(C)c2C)CN1C(=O)[C@@H](NC(=O)OC(C)(C)C)C(C)(C)C)C(=O)NS(=O)(=O)C1CC1 | - | 1b | Huh7 | replicon | >10 µM |
| CN1CCN(c2cc3c(cc2F)c(=O)c(-c2noc(C(CCCC(=O)O)c4ccccc4)n2)cn3Cc2ccc(Cl)cc2)CC1 | - | 1b | - | replicon | <10 µM |
| CC1(C)CC(=O)C2=C(C1)Nc1c(O)cccc1N(C(=O)CS(=O)(=O)c1ccccc1)C2c1ccc(OCc2ccccc2)cc1F | - | 1b | - | luciferase / reporter gene / replicon | 1.19 µM |
| CC1CCC(C(=O)N(c2cc(-c3ccc(NC(=O)c4cnccn4)cc3)sc2C(=O)O)C(C)C)CC1 | - | 1b | - | replicon | <0.5 µM |
| CC1(C)CC(=O)C2=C(C1)Nc1c(O)cccc1NC2c1cccnc1 | - | 1b | - | luciferase / reporter gene / replicon | >100 µM |
| O=C(N[C@@H](C(=O)N1CCC[C@H]1c1ncc(-c2ccc(-c3ccc(-c4cnc([C@@H]5CCCN5C(=O)[C@H](NC(=O)C5CC5)c5ccccc5)s4)cc3)cc2)s1)c1ccccc1)C1CC1 | Y93C | genotype 1b | Huh7.5 | luciferase / reporter gene | 0.000078 µM |

A second listing of 8 rows from above:

| structure | changes | strain or isolate | cell line | method | result |
|---|---|---|---|---|---|
| COc1ccc2c(c1)c(=O)c(-c1noc(Cc3ccccc3)n1)cn2Cc1ccc(Cl)cc1 | - | 1b | - | replicon | >10 µM |
| CC1CCC(C(=O)N(c2cc(-c3ccc(NC(=O)c4cnccn4)cc3)sc2C(=O)O)C(C)C)CC1 | - | 1b | - | replicon | <0.5 µM |
| CC1(C)CC(=O)C2=C(C1)Nc1c(O)cccc1N(C(=O)CS(=O)(=O)c1ccccc1)C2c1ccc(OCc2ccccc2)cc1F | - | 1b | - | luciferase / reporter gene / replicon | 1.19 µM |
| Nc1ncnc2c1c(I)cn2[C@@H]1O[C@H](CO)[C@@H](O)C1(F)F | - | 1b | HCV replicon | replicon | 0.06 µM |
| CNOCc1ccc(-c2cnc3nc(N)nc(N4CCOCC4)c3n2)cc1 | - | - | Huh7 | - | 1–10 µM |
| C=CC[C@](C)(NC(=O)[C@H]1C[C@@H](Oc2ccnc3ccc(F)cc23)CN1C(=O)[C@@H](NC(=O)OC(C)(C)C)C(C)(C)C)C(=O)NS(=O)(=O)C1CC1 | - | BMS | Huh7 | replicon | <0.1 µM |
| CC1(C)CC(=O)C2=C(C1)Nc1c(O)cccc1NC2c1cccnc1 | - | 1b | - | luciferase / reporter gene / replicon | >100 µM |
| Cc1cc(-c2cc(N(C(=O)C3CCC(C)CC3)C(C)C)c(C(=O)O)s2)cnc1NC(=O)c1cscn1 | - | 1b | - | replicon | <0.5 µM |